Results from US8809377B2, “Deubiquitinase inhibitors and methods for use of the same” (The Regents of the University of Michigan, priority 2010, dated 2014).

Test system: Listeria monocytogenes
Assay: Listeria monocytogenes infection of macrophages, CFU
Settings: RAW264.7 macrophages, 5 μM, 8 hr infection, MOI 1

SMILES: CCC[C@H](NC(=O)/C(C#N)=C/c1cccc(Br)n1)c1ccccc1 [WP1130]
- reduction in Listeria monocytogenes titers (intracellular colony forming units): 3-10 fold
